A mixed list of measured activities; the numbers were collected in NIAID ChemDB.

Common to all: whole-cell or culture tests; organism: Cryptococcus neoformans

MIC50, MIC90 and the like: level of inhibition, or share of isolates inhibited.

structure	method	measure	strain	dose	value
C=C1CO[C@H]2[C@@H](C)OC(OC[C@@]34C[C@H]5[C@H](C)CC[C@@H]5[C@@]5(C=O)C[C@@H]3C=C(C(C)C)[C@@]45C(=O)O)C[C@@H]12	-	MIC90	137 strains (serotype A)	-	1 µg/mL
C[C@@H](N1CCN(Cc2cn(Cc3ccc(C(F)(F)F)cc3)c3cc(Cl)ccc23)CC1)[C@](O)(Cn1cncn1)c1ccc(F)cc1F	resazurin	MIC80	ATCC 36556	-	>128 µg/mL
Oc1ccccc1N=Cc1ccccc1	-	MIC99	F-10	-	5.7 µg/mL
C[C@@H](N1CCN(Cc2cn(Cc3ccc(Cl)cc3Cl)c3c(F)cccc23)CC1)[C@](O)(Cn1cncn1)c1ccc(F)cc1F	resazurin	MIC80	ATCC 36556	-	>128 µg/mL
C[C@@H](c1ncncc1F)[C@](O)(Cn1cncn1)c1ccc(F)cc1F	broth dilution	MIC	B 32287	-	0.125 µg/mL
Oc1ccccc1N=Cc1cccc(O)c1O	broth dilution	MIC	ATCC 28957	-	4 µg/mL
NCCCC[C@H](NC(=O)[C@@H](N)CCCCN)C(=O)N[C@@H](CCC(N)=O)C(=O)N[C@@H](CCCN=C(N)N)C(=O)O	-	inhibition	ATCC 32264	50 µM	92%
C[C@@H](c1nc(-c2ccc(C#N)cc2)cs1)[C@](O)(Cn1cnnc1)c1ccc(F)cc1F	-	MFC99	A28201	-	4 µg/mL
O=[N+]([O-])c1ccc(C=Nc2ccccc2O)cc1	-	MIC99	LMM 820	-	16 µg/mL
CN[C@H]1CC[C@@H](c2ccc(Cl)c(Cl)c2)c2ccccc21	broth dilution	MFC	123.96	-	8 µg/mL
C[C@@H](N1CCN(Cc2cn(Cc3ccc(F)cc3F)c3c(C#N)cccc23)CC1)[C@](O)(Cn1cncn1)c1ccc(F)cc1F	resazurin	MIC80	ATCC 36556	-	>128 µg/mL
C[C@@H](n1ncn(-c2ccc(OCC(F)(F)C(F)F)cc2)c1=O)[C@](O)(Cn1cncn1)c1ccc(F)cc1F	-	MFC	DUMC 125.96	-	>16 µg/mL
Oc1ccccc1N=Cc1ccc(F)cc1	-	MIC99	96806	-	5.7 µg/mL
C[C@@H](N1CCN(Cc2cn(Cc3ccc(C(F)(F)F)cc3)c3ccccc23)CC1)[C@](O)(Cn1cncn1)c1ccc(F)cc1F	resazurin	MIC80	ATCC 36556	-	>128 µg/mL
CC(C(O)(Cn1cncn1)c1ccc(F)cc1F)S(C)(=O)=O	-	EC50	R716 (AZOLE-R)	-	4 µM
C[C@@H](n1cnc2cc(Cl)ccc2c1=O)[C@](O)(Cn1cncn1)c1ccc(F)cc1F	-	MFC	Isolate 133.95	-	20 µg/mL
Oc1ccccc1N=Cc1ccc2c(c1)OCO2	broth dilution	MIC	VM-MCMMPI	-	5.7 µg/mL
C[C@@H](N1CCN(Cc2cn(Cc3ccc(F)cc3)c3c(Cl)cccc23)CC1)[C@](O)(Cn1cncn1)c1ccc(F)cc1F	resazurin	MIC80	ATCC 36556	-	>128 µg/mL
Oc1ccc(O)c(C=Nc2ccccc2O)c1	broth dilution	MIC	27JF	-	11.3 µg/mL
C[C@@H](N1CCN(Cc2cn(Cc3ccc(F)cc3F)c3ccc(C#N)cc23)CC1)[C@](O)(Cn1cncn1)c1ccc(F)cc1F	resazurin	MIC80	ATCC 36556	-	>128 µg/mL
CCOC(=O)c1c(C)nc(NCCCCNc2ccnc3cc(Cl)ccc23)nc1-c1ccccc1[N+](=O)[O-]	-	MIC99	VM-MCMMPI	-	8 µg/mL
CC(=O)OC[C@H]1O[C@@H](O[C@@H]2[C@@H](N=[N+]=[N-])[C@H](O)[C@H](O)[C@H]3OC(C)(C)O[C@H]32)[C@H](OC(C)=O)[C@@H](OC(C)=O)[C@H]1OC(C)=O	broth dilution / turbidity	inhibition	ATCC 32264	7.8 µg/mL	0%
NC(=S)N/N=C(\N)c1ccccn1	-	MIC100	ATCC 24067A	-	52.53 µM
CCOC(=O)c1c(C)nc(NCCCNc2ccnc3cc(Cl)ccc23)nc1-c1ccccc1	-	MIC99	WP	-	8 µg/mL
CC(C)N=C(N)c1ccc2nc(-c3ccc4c(c3)Cc3cc(-c5nc6ccc(C(N)=NC(C)C)cc6[nH]5)ccc3-4)[nH]c2c1	-	Geometric mean MFC	9 strains	-	1.03 µg/mL
Cn1nc(Cc2ccc(Cl)cc2)c2ccccc2c1=O	broth dilution	MIC80	Clinical isolate (IM 031633)	-	7.8 µg/mL

2 of the rows above, restated:

structure	method	measure	strain	dose	value
C[C@@H](c1ncncc1F)[C@](O)(Cn1cncn1)c1ccc(F)cc1F	broth dilution	MIC	B 32287	-	0.125 µg/mL
C[C@@H](c1nc(-c2ccc(C#N)cc2)cs1)[C@](O)(Cn1cnnc1)c1ccc(F)cc1F	-	MFC99	A28201	-	4 µg/mL

Blank or dashed fields: not listed here. Percent inhibition refers to the dose given; in toxicity tests it is the harm to the cells. ECn is the concentration giving n% inhibition of infection, replication or growth. Rows are shuffled and stem from different studies.